Data on four compounds can be found in patent publication US8192854B2, “Microbial fuel cell treatment of ethanol fermentation process water” (priority 2009, dated 2012).

For data set [1], the system named is inhibitor-consuming microbial consortium in a microbial fuel cell (MFC-A). Kind of data set: Power density analysis of MFC with individual inhibitor as substrate, ferricyanide cathode. The conditions noted are these: for maximum power density: substrate at 0.2 g/L, projected anode area; for volumetric power density: converted from area power density with anode specific surface area 79 m^2/m^3 and NAV 0.83.

Data set [2] has the same test system. Kind of data set: Removal of inhibitor mixture during enrichment of consortium in MFC-A. The conditions noted are these: mixture of 0.2 g/L 2-furfural, 0.1 g/L HB, 0.1 g/L HAP, 0.5 g/L VA added at time zero.
The test system is the same in data set [3]. The data set can be described thus: Coulombic efficiency and HPLC analysis of inhibitor conversion in MFC. The conditions noted are these: individual substrate in MFC.

As for `CC(=O)c1ccc(O)cc1` [HAP, 4-hydroxyacetophenone], the maximum power density in data set [1] amounted to 9 mW/m^2.

For the compound `O=Cc1ccc(O)cc1` [HB, 4-hydroxybenzaldehyde], in data set [1], the volumetric power density was determined as 59 W/m^3 and the maximum power density was found to be 630 mW/m^2. Also, the “time of consumption of substrate” value in data set [2] turned out to be 5 days. For the same compound, the “coulombic efficiency (CE)” value in data set [3] is 64±4%.

In data set [1], `O=Cc1ccc(CO)o1` [HMF, 5-hydroxymethylfurfural] had a volumetric power density of 238 W/m^3 and a maximum power density of 2510 mW/m^2. Besides, in data set [3], the “coulombic efficiency (CE)” value stood at 60±4%; the “degree of mineralization (coulombic efficiency and HPLC data)” value was “near complete mineralization”.

Regarding `COc1cc(C(=O)O)ccc1O` [VA, vanillic acid], the maximum power density in data set [1] is 150 mW/m^2.
